Results taken from patent US20230278997A1, “BICYCLO[1.1.1]PENTANE COMPOUNDS FOR THE TREATMENT AND PROPHYLAXIS OF HEPATITIS B VIRUS INFECTION” (Hoffmann-La Roche Inc., priority 2020, published 2023).
pIC50: −log10 of the molar value.

Key:
[1] = test system: HBsAg; experiment: PHH natural infection assay, HBsAg (alphalisa); assay type: cell-based; settings: read-out: HBsAg IC50; HBV-infected PHH, supernatant
[2] = test system: HBeAg; experiment: PHH natural infection assay, HBeAg (alphalisa); assay type: cell-based; settings: read-out: HBeAg IC50; HBV-infected PHH, supernatant

“N-[3-[3-(4-chlorophenyl)-1,2,4-oxadiazol-5-yl]-1-bicyclo[1.1.1]pentanyl]-2-(1-methyl-1-methylsulfonyl-propyl)pyridine-4-carboxamide” was tested, and the pIC50 [1] was 6.11 and the pIC50 [2] was 6.25.
Substance “N-[3-[3-(4-chlorophenyl)-1,2,4-oxadiazol-5-yl]-1-bicyclo[1.1.1]pentanyl]-6-(1-methyl-1-methylsulfonyl-propyl)pyridine-2-carboxamide” has a pIC50 [1] of 6.14 and a pIC50 [2] of 6.33.
“N-[3-[3-(4-chlorophenyl)-1,2,4-oxadiazol-5-yl]-1-bicyclo[1.1.1]pentanyl]-3-(1-methyl-2-methylsulfonyl-ethyl)benzamide” was tested, and the pIC50 [1] was 6.33 and the pIC50 [2] was 6.43.
